Our source for the CC50 values is ChEMBL document CHEMBL2321648, “Structure-based discovery of pyrazolobenzothiazine derivatives as inhibitors of hepatitis C virus replication” (J Med Chem, 2013).

A value given as a limit tells only on which side of the number the result lay.

The first data set is described as follows: Cytotoxicity against human HuH5.2 cells by MTS assay. Format: cell-based, Huh-5-2. The conditions noted are these: HuH5.2 cells. The method, boiled down: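 Huh 5-2 replicon cells run in parallel with the antiviral assay: 72 h compound exposure at 37 °C, then 5% MTS in phenol red-free medium for 1.5 h. Absorbance at 498 nm expressed as % of untreated controls. CC50 taken from the dose-response curve, means ± SD of at least three independent experiments.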
Turning to `CS(=O)(=O)Nc1ccc(NC(=O)c2nn(-c3ccc([N+](=O)[O-])cc3)c3c2NS(=O)(=O)c2ccccc2-3)cc1`, the CC50 is 55 µM.

Still in this data set, the particulars now being: huh-5-2.
Take `CN1c2c(C(=O)Oc3ccc(NS(C)(=O)=O)cc3)nn(-c3cccc(F)c3)c2-c2ccccc2S1(=O)=O`: the CC50 is more than 185 µM.

Take `CN1c2c(C(=O)Nc3ccc(N)cc3)nn(-c3cccc(F)c3)c2-c2ccccc2S1(=O)=O`: the CC50 was more than 270 µM. `CN1c2c(C(=O)Nc3ccc(NS(C)(=O)=O)cc3)nn(-c3cccc(N)c3)c2-c2ccccc2S1(=O)=O` registered a CC50 of 20 µM. Consider `CN1c2c(C(=O)Nc3ccc(NS(C)(=O)=O)cc3)nn(-c3ccccc3N)c2-c2ccccc2S1(=O)=O`, for which the CC50 is more than 232 µM.

The molecule `COC(=O)c1nn(-c2cccc(F)c2)c2c1N(C)S(=O)(=O)c1ccccc1-2` yielded a CC50 of more than 323 µM. The molecule `CN1c2c(C(=O)Nc3ccc(NS(C)(=O)=O)cc3)nn(-c3cccc(F)c3)c2-c2ccccc2S1(=O)=O` yielded a CC50 of more than 370 µM. With `CN1c2c(C(=O)Nc3ccc(NS(C)(=O)=O)cc3)nn(-c3ccc(F)cc3)c2-c2ccccc2S1(=O)=O`, the CC50 was more than 231 µM. On the same count and under the same terms, the value for `CN1c2c(C(=O)Nc3ccc(NS(C)(=O)=O)cc3)nn(-c3ccccc3F)c2-c2ccccc2S1(=O)=O` was more than 231 µM; that for `CN1c2c(C(=O)Nc3ccc(NS(C)(=O)=O)cc3)nn(-c3ccc(N)cc3)c2-c2ccccc2S1(=O)=O` was 25 µM.

The conditions of the next data set: human.
Take `CN1c2c(C(=O)Nc3ccc(NS(C)(=O)=O)cc3)nn(-c3cccc(F)c3)c2-c2ccccc2S1(=O)=O`: the CC50 is more than 180 µM.
